Pooled drug test results. Numbers come from NIAID ChemDB, via PubChem.

Common to all: growth or infection tests; organism: Candida parapsilosis

A number after MIC or MFC names an inhibition level or a share of isolates.

{"SMILES": "OC(CCn1ccnc1)c1cccc(C(O)c2ccc(Cl)cc2)c1", "read by": "broth dilution", "measure": "MIC", "strain or isolate": "RTCC 1018", "result": ">64 µg/mL"}
{"SMILES": "O/N=C\\c1ccc(F)cc1", "measure": "MIC", "result": "3600 µM"}
{"SMILES": "CN(Cc1ccc(S(=O)(=O)NC(C)(C)C)cc1)CC(O)(Cn1cncn1)c1ccc(F)cc1F", "read by": "resazurin", "measure": "MIC", "strain or isolate": "CAPA1", "result": "0.038 µg/mL"}
{"SMILES": "COc1ccc(C(c2ccc(OC)cc2)n2cncn2)cc1", "read by": "agar", "measure": "MIC90", "result": ">256 µg/mL"}
{"SMILES": "O/N=C\\c1ccc(O)cc1", "read by": "broth dilution", "measure": "MFC", "result": ">7290 µM"}
{"SMILES": "CC1C(=O)N(CCCCc2ccccc2)C(=O)C1C", "read by": "broth dilution / turbidity", "measure": "MIC", "strain or isolate": "CCC 124-2000", "result": "125 µg/mL"}
{"SMILES": "O/N=C\\c1ccccc1", "measure": "MIC", "result": "2060 µM"}
{"SMILES": "CC1C(=O)N(Cc2ccccc2)C(=O)C1C", "read by": "broth dilution / turbidity", "measure": "MIC", "strain or isolate": "CCC 124-2000", "result": "125 µg/mL"}
{"SMILES": "CCCc1ccc(NS(=O)(=O)c2ccc(CN(C)CC(O)(Cn3cncn3)c3ccc(F)cc3F)cc2)cc1", "read by": "resazurin", "measure": "MIC", "strain or isolate": "CAPA2", "result": "0.23 µg/mL"}
{"SMILES": "CC(C)(O)c1cn(-c2ccc(Cl)cc2)nn1", "read by": "broth dilution", "measure": "MIC", "strain or isolate": "URM 4607", "result": "128 µg/mL"}
{"SMILES": "Cc1ccccc1N1C(=O)C[C@@H](C)C1=O", "read by": "broth dilution / turbidity", "measure": "MIC", "strain or isolate": "CCC 124-2000", "result": "125 µg/mL"}
{"SMILES": "O/N=C\\c1ccccc1Cl", "measure": "MIC100", "result": "1420 µM"}
{"SMILES": "C[C@@H](c1ncncc1F)[C@](O)(Cn1cncn1)c1ccc(F)cc1F", "read by": "broth dilution", "measure": "MIC50", "result": "0.016 µg/mL"}
{"SMILES": "COc1ccc(/C=N\\O)cc1", "read by": "broth dilution", "measure": "MIC100", "result": "3310 µM"}
{"SMILES": "CCC(C)n1ncn(-c2ccc(N3CCN(c4ccc(OC[C@H]5CO[C@](Cn6cncn6)(c6ccc(Cl)cc6Cl)O5)cc4)CC3)cc2)c1=O", "read by": "broth dilution", "measure": "MIC50", "result": "0.13 µg/mL"}
{"SMILES": "C[C@@H]1C(=O)N(Cc2ccccc2)C(=O)[C@@H]1C", "read by": "broth dilution / turbidity", "measure": "MIC", "strain or isolate": "CCC 124-2000", "result": "62.5 µg/mL"}
{"SMILES": "O=C1C(=O)c2ccccc2C2=C1CC(CI)O2", "read by": "broth dilution", "measure": "MIC", "strain or isolate": "Clinical isolate", "result": "40.32 µg/mL"}
{"SMILES": "OC(CCn1ccnc1)c1ccc(-c2ccccc2)cc1", "read by": "broth dilution", "measure": "MIC", "strain or isolate": "RTCC 1018", "result": ">64 µg/mL"}
{"SMILES": "O=C(c1ccccc1)C(c1ccccc1)n1cncn1", "read by": "agar", "measure": "MIC90", "result": "64 µg/mL"}
{"SMILES": "CN(Cc1ccc(NS(=O)(=O)c2ccc([N+](=O)[O-])cc2)cc1)CC(O)(Cn1cncn1)c1ccc(F)cc1F", "read by": "resazurin", "measure": "MIC", "strain or isolate": "CAPA1", "result": "1.91 µg/mL"}
{"SMILES": "Clc1ccc(C(c2ccccc2)n2cncn2)cc1", "read by": "agar", "measure": "MIC90", "result": "256 µg/mL"}
{"SMILES": "Cc1ccc(N2C(=O)C[C@@H](C)C2=O)cc1", "read by": "broth dilution / turbidity", "measure": "MIC", "strain or isolate": "CCC 124-2000", "result": "62.5 µg/mL"}
{"SMILES": "CN(Cc1ccc(S(=O)(=O)Nc2ccc([N+](=O)[O-])cc2)cc1)CC(O)(Cn1cncn1)c1ccc(F)cc1F", "read by": "resazurin", "measure": "MIC", "strain or isolate": "CAPA2", "result": "0.73 µg/mL"}
{"SMILES": "C=CCc1ccc(OC)c(OC)c1", "read by": "turbidity", "measure": "MIC90", "strain or isolate": "2383", "result": "350 µg/mL"}
{"SMILES": "CN(Cc1ccc(NS(=O)(=O)c2ccccc2)cc1)CC(O)(Cn1cncn1)c1ccc(F)cc1F", "read by": "resazurin", "measure": "MIC", "strain or isolate": "CAPA1", "result": "1.2 µg/mL"}
{"SMILES": "CC1C(=O)N(CCc2ccccc2)C(=O)C1C", "read by": "broth dilution / turbidity", "measure": "MIC", "strain or isolate": "CCC 124-2000", "result": "250 µg/mL"}
{"SMILES": "CCCNS(=O)(=O)c1ccc(CN(C)CC(O)(Cn2cncn2)c2ccc(F)cc2F)cc1", "read by": "resazurin", "measure": "MIC", "strain or isolate": "CAPA2", "result": "1.5 µg/mL"}
{"SMILES": "O=C(CCn1ccnc1)c1cccc(O)c1", "read by": "broth dilution", "measure": "MIC", "strain or isolate": "RTCC 1018", "result": ">64 µg/mL"}
{"SMILES": "COc1ccc(/C=N/O)cc1", "measure": "MIC100", "result": "3310 µM"}
{"SMILES": "CCOc1ccc2nc3cc(N=C4NC(=O)/C(=C\\c5ccc([N+](=O)[O-])o5)S4)ccc3c(N)c2c1", "read by": "broth dilution", "measure": "MFC", "result": "125 µg/mL"}
{"SMILES": "O=C(CCn1ccnc1)c1cccc(C(O)c2ccc(Br)cc2)c1", "read by": "broth dilution", "measure": "MIC", "strain or isolate": "RTCC 1079", "result": ">64 µg/mL"}
{"SMILES": "CCCCCCCCCCCCCCCC(=O)NC(CCCCN)C(=O)NC(CCCCN)C(N)=O", "read by": "broth dilution", "measure": "MIC", "strain or isolate": "ATCC 4796", "result": "1 µg/mL"}
{"SMILES": "Clc1ccc(C(c2ccccc2)n2nnc3ccccc32)cc1", "read by": "agar", "measure": "MIC90", "result": ">256 µg/mL"}
{"SMILES": "O=C(CCn1ccnc1)c1ccc2ccccc2c1", "read by": "broth dilution", "measure": "MIC", "strain or isolate": "RTCC 1018", "result": "32 µg/mL"}

The first 2 rows once more:

SMILES,read by,measure,strain or isolate,result
OC(CCn1ccnc1)c1cccc(C(O)c2ccc(Cl)cc2)c1,broth dilution,MIC,RTCC 1018,>64 µg/mL
O/N=C\c1ccc(F)cc1,,MIC,,3600 µM

Neighbouring rows are from separate reports. An empty or dashed field is not shown.